Compound potency records, mixed from different reports. Data source: NIAID ChemDB in PubChem.

All rows: whole-cell or culture tests; agent: Candida albicans

ECn is the concentration giving n% inhibition of infection, replication or growth.

structure | measure | setting | strain or isolate | method | value
C=CCc1ccc(O)c(-c2ccc(O)c(CC=C)c2)c1 | MIC | - | YL 363 | broth dilution | 128 µg/mL
O=C/C=C/c1ccccc1 | MIC | biofilm | ATCC 90028 | XTT | 125 µg/mL
COC(=O)[C@]1(C)CCC[C@]2(C)c3ccc(C(C)C)cc3-c3[nH]c4ccc([N+](=O)[O-])cc4c3C12 | MIC | - | CGMCC 2.2086 | - | 31.2 µg/mL
COc1ccc(Cl)c(Nc2ccc3c(C)c(C)sc3c2C)c1 | MIC | - | CECT 1394 | - | 25 µg/mL
C/C=C(\C)C(=O)Nc1c2sscc-2n(C)c1=O | MIC | - | IPA200 | - | 20 µg/mL
C[C@@H]1O[C@@H](O[C@@H]2[C@@H](O)[C@H](OCCc3ccc(O)c(O)c3)O[C@@H](CO)[C@H]2OC(=O)/C=C/c2ccc(O)c(O)c2)[C@H](O)[C@H](O)[C@H]1O | MIC | - | ATCC 10231 | broth dilution | 250 µg/mL
COc1ccc(O)c(C=O)c1 | MIC | biofilm | ATCC 90028 | XTT | 500 µg/mL
Cc1ccc2nc(Sc3ccc(Cl)cc3)c(C3C(C#N)=C(N)Oc4c3c(=O)oc3ccccc43)cc2c1 | MIC | - | MTCC 227 | broth dilution | >1000 µg/mL
CCC(C)n1ncn(-c2ccc(N3CCN(c4ccc(OC[C@H]5CO[C@](Cn6cncn6)(c6ccc(Cl)cc6Cl)O5)cc4)CC3)cc2)c1=O | MIC50 | - | 9 clinical isolates | broth dilution | 0.062 µg/mL
Cc1cc2c(c(=O)o1)C(c1cc3ccccc3nc1Sc1ccc(Cl)cc1)C(C#N)=C(N)O2 | MIC | - | MTCC 227 | broth dilution | 1000 µg/mL
C[C@@H]1[C@H](O)[C@@H](C)/C=C/C=C/CC/C=C/C=C/C=C/C=C/C(O[C@H]2O[C@H](C)[C@@H](O)[C@H](N)[C@@H]2O)CC2O[C@](O)(CC(O)C(O)CCC(O)CC(O)CC(O)CC(=O)O[C@H]1C)CC(O)C2C(=O)O | MIC | - | ATCC 2091 | broth dilution | 6.25 µg/mL
N#CC1=C(N)Oc2c(c(=O)oc3ccccc23)C1c1cc2ccccc2nc1Sc1ccc(Cl)cc1 | MIC | - | MTCC 227 | broth dilution | >1000 µg/mL
COc1cc(/C=C/C(=O)O)ccc1O | MIC | biofilm | ATCC 90028 | XTT | >4000 µg/mL
COc1c2ccoc2cc2oc(=O)ccc12 | EC50 | - | 105 | broth dilution | <400 µg/mL
COc1cccc(Nc2ccc3c(C)c(C)sc3c2C)c1 | MIC | - | CECT 1394 | - | 0.05 µg/mL
CC(C)=CCOc1cc(NC(=S)c2ccoc2C)ccc1Cl | MIC | - | - | - | >30 µM
CC(=O)N1CCN(c2ccc(OC[C@H]3CO[C@](Cn4ccnc4)(c4ccc(Cl)cc4Cl)O3)cc2)CC1 | MIC50 | - | 9 clinical isolates | broth dilution | ≤0.031 µg/mL
C=CC(O)C#CC#CC(O)/C=C\C(O)CCCCCC | MIC | - | 105 | - | 200–400 µg/mL
CCC[CH2][Sn]([CH2]CCC)([NH]c1ccccc1C(=O)O)[O]C(=O)c1ccccc1N | EC50 | - | ATCC 18804 | broth dilution | 7.5 µg/mL
C[C@@H](c1ncncc1F)[C@](O)(Cn1cncn1)c1ccc(F)cc1F | MIC90 | - | 85 strains (fluconazole-resistant) | - | >8 µg/mL
COc1cc2occ(-c3ccc(O)cc3)c(=O)c2c(OC)c1CC=C(C)C | MIC | - | ATCC 2091 | broth dilution | 12.5 µg/mL
C[C@@H](c1nc(-c2ccc(C#N)cc2)cs1)[C@](O)(Cn1cncn1)c1ccc(F)cc1F | MIC50 | - | 85 strains (fluconazole-resistant) | - | 0.25 µg/mL
CC(C)=CC(=O)Nc1c2sscc-2n(C)c1=O | MIC | - | IPA200 | - | 20 µg/mL
Cc1ccc(Sc2nc3ccc(C)cc3cc2C2C(C#N)=C(N)Oc3c2c(=O)oc2ccccc32)cc1 | MIC | - | MTCC 227 | broth dilution | 500 µg/mL
COc1cc(C=O)ccc1O | MIC | biofilm | ATCC 90028 | XTT | 500 µg/mL
COC(=O)[C@]1(C)CCC[C@]2(C)c3ccc(C(C)C)cc3-c3[nH]c4ccc(OC)cc4c3C12 | MIC | - | CGMCC 2.2086 | - | 62.5 µg/mL
C[C@H]1[C@H](O)[C@@H](C)/C=C/C=C/C=C/C=C/C=C/C=C/C=C/[C@H](O[C@@H]2O[C@H](C)[C@@H](O)[C@H](N)[C@@H]2O)C[C@@H]2O[C@](O)(C[C@@H](O)C[C@@H](O)CC[C@H](O)[C@@H](O)C[C@@H](O)CC(=O)O[C@H]1C)C[C@H](O)[C@H]2C(=O)O | EC50 | - | ATCC 18804 | broth dilution | 1 µg/mL
COC(=O)[C@]1(C)CCC[C@]2(C)c3ccc(C(C)C)cc3-c3[nH]c4c(Br)cccc4c3C12 | MIC | - | CGMCC 2.2086 | - | >100 µg/mL
C=C(Cl)/C=C/[C@H](O)CC(=C)C[C@H]1OC2[C@@H](O)[C@]3(O)C[C@@H](O)[C@H](C)[C@H](CCC/C=C\[C@@H]4C[C@@H](O)C[C@]5(C[C@H](OC)CC(CC(=O)[C@@H](C)[C@H](OC(C)=O)[C@@H](C)C(=C)C[C@@H]6C[C@@](C)(O)C[C@]7(C[C@H](OC(C)=O)CC(CC(=O)O[C@@H]([C@@H]1O)[C@H]2C)O7)O6)O5)O4)O3 | MFC | - | ATCC 14053 | - | 25 µg/mL
COC(=O)[C@]1(C)CCC[C@]2(C)c3ccc(C(C)C)cc3-c3[nH]c4c(OC)cccc4c3C12 | MIC | - | CGMCC 2.2086 | - | >100 µg/mL
Cc1sc2c(C)c3[nH]c4ccccc4c3cc2c1C | MIC | - | CECT 1394 | - | 0.05 µg/mL
O=c1c(O)c(-c2ccc(O)c(O)c2)oc2cc(O)cc(O)c12 | MFC | - | ATCC 10231 | broth dilution | 250 µg/mL
COC(=O)[C@]1(C)CCC[C@]2(C)c3ccc(C(C)C)cc3-c3[nH]c4ccc(F)cc4c3C12 | MIC | - | CGMCC 2.2086 | - | 62.5 µg/mL
COc1ccc(C(=O)O)cc1 | MIC | biofilm | ATCC 90028 | XTT | 4000 µg/mL

Repeating the final 5 entries:

structure | measure | setting | strain or isolate | method | value
COC(=O)[C@]1(C)CCC[C@]2(C)c3ccc(C(C)C)cc3-c3[nH]c4c(OC)cccc4c3C12 | MIC | - | CGMCC 2.2086 | - | >100 µg/mL
Cc1sc2c(C)c3[nH]c4ccccc4c3cc2c1C | MIC | - | CECT 1394 | - | 0.05 µg/mL
O=c1c(O)c(-c2ccc(O)c(O)c2)oc2cc(O)cc(O)c12 | MFC | - | ATCC 10231 | broth dilution | 250 µg/mL
COC(=O)[C@]1(C)CCC[C@]2(C)c3ccc(C(C)C)cc3-c3[nH]c4ccc(F)cc4c3C12 | MIC | - | CGMCC 2.2086 | - | 62.5 µg/mL
COc1ccc(C(=O)O)cc1 | MIC | biofilm | ATCC 90028 | XTT | 4000 µg/mL

Neighbouring rows are from separate reports. A number after MIC or MFC names an inhibition level or a share of isolates. Two numbers with a dash give a range or band. An empty or dashed field is not shown.